Where “and” joins values, the source holds several entries; their conditions need not be identical. Equal entries are not always repeated. The source's definition of the ratio is not given here.
Test system: HIV-I IIIB
Test: Acute infection assay, HIV core antigen ELISA (HIV-I IIIB)
Format: cell-based
Conditions: Against HIV-I IIIB; for SI (Selectivity Index): single determinations, ratio CC50 / IC50; for SI (Selectivity Index), Average: average line

SMILES	SI (Selectivity Index)	SI (Selectivity Index), Average
NC(=O)c1cc([N+](=O)[O-])c(Cl)c([N+](=O)[O-])c1 [C5]	10	
NC(=O)c1cc([N+](=O)[O-])c(Cl)c([N+](=O)[O-])c1Cl [C2]	35	
O=C(O)c1cc([N+](=O)[O-])c(Cl)c([N+](=O)[O-])c1 [C4, 4-chloro-3,5-dinitrobenzoic acid]	2.5 and 2.3	2.4
O=C(O)c1cc([N+](=O)[O-])cc([N+](=O)[O-])c1Cl [C7, 2-chloro-3,5-dinitrobenzoic acid]		8

Reference: patent EP0751768B1, “ANTI-VIRAL AND ANTI-CANCER AGENT” (Radopath Pharmaceuticals International Limited, priority 1994, dated 1995)
